US5840283A, “Composition and method for treating diseased nails” (Sorenson Pharmaceutical, Inc., priority 1997, dated 1998)

Test: absorbance spectrum studies (amide I band) on hydrated human toe nails
Conditions: toe nails hydrated in heavy water

[2H]O[2H] [heavy water]
conformational alterations by hydration alone: hydration alone does not result in conformational alterations
